In patent US20260124194A1 (priority 2022, published 2026):

System: subjects with idiopathic Chronic Intestinal Pseudo-Obstruction (CIPO)
Conditions: in vivo

CC(C)n1c(=O)c(C(=O)N[C@H]2C[C@H]3CC[C@@H](C2)N3C[C@@H](O)CN(C)S(C)(=O)=O)cc2ccccc21 [velusetrag, 1-isopropyl-2-oxo-1,2-dihydroquinoline-3-carboxylic acid {(1S,3R,5R)-8-[(R)-2-hydroxy-3-(methanesulfonyl-methyl-amino)propyl]-8-azabicyclo[3.2.1]oct-3-yl}amide]
Orocecal transit time, mean change between Visit 3 and Visit 1: -63.0 ± 83.79 min
